Columns and labels:
HepG2 = test: Cytotoxicity against human HepG2 cells incubated for 72 hrs by Hoechst 33342 staining based assay; type: toxicity, cell-based; conditions: hepg2, 72 h
How it was run: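 HepG2 cells, 2000 per collagen-coated well, treated the following day by pin transfer from a 12-point 1:3 dilution series (1000× DMSO stocks). Puromycin positive control; 0.1% v/v DMSO negative. After 72 h: fixed, Hoechst 33342 nuclear stain, high-content imaging. CC50 fitted per run from duplicate wells; three independent experiments.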

Hepatocyte = test: Cytotoxicity against human primary hepatocytes; type: toxicity, cell-based
How it was run: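 Host primary human hepatocytes (18 000 per collagen-coated well) in the P. vivax liver-stage radical-cure cultures. Compound given days 5–7 post-infection from a 12-point 1:3 dilution series; fixed at day 12 and imaged by high-content imaging. 0.1% DMSO negative control. CC50 fitted per run from duplicate wells; two independent experiments.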

**Q.** `CC1=C[C@H]2O[C@@H]3C[C@@H](O)[C@](C)([C@@]2(CO)CC1)[C@@]31CO1` was tested. Which CC50 (HepG2) did it give?
**A.** Its CC50 is > 10 µM.

**Q.** What about the pCC50 (HepG2) of the same molecule?
**A.** The pCC50 was < 5.

**Q.** What about the CC50 (Hepatocyte) of the same molecule?
**A.** Its CC50 is > 10 µM.

**Q.** What about the pCC50 (Hepatocyte) of the same molecule?
**A.** The pCC50 was < 5.

Reference: ChEMBL document CHEMBL5357032, “In Vitro Antimalarial Activity of Trichothecenes against Liver and Blood Stages of Plasmodium Species” (J Nat Prod, 2024)
